PubChem BioAssay AID624099, ICCB-Longwood, 2012

- Purpose: 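Host factors E2 relies on to silence an HPV18 LCR reporter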 (primary screen)
- System: human C33A cervical carcinoma cells (HPV-negative) stably expressing BPV1 E2 and an HPV18 LCR luciferase reporter
- Reagent: siRNA pool against human genes, 40 nM
- Time to read-out: 72 h
- Measurement: 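Per-well luciferase luminescence, z-scored on each plate against the plate mean and SD with control wells left out, then averaged across three replicate plates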
- Reading the numbers: mean z-score and z-score: higher = stronger reporter signal, weaker E2 silencing
- Active means: 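Hit if mean z-score reaches 2 and two or more of three replicate z-scores also reach 2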
Shown is a random part of about 21,000 deposited reagents. Of all reagents, 497 (2.4%) got an active call. 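Higher z means weaker E2 silencing; only reporter increases were scored, and knock-downs that hurt cell survival may mask genuine repressor factors.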 Reagents against one gene are numbered here.

no.	gene	pool no.	mean z-score	z-score, replicate A	z-score, replicate B	z-score, replicate C	Outcome
1	ZFR (zinc finger RNA binding protein)	1	1.08	1.24	1.12	0.88	inactive
2	FHL5 (four and a half LIM domains 5)	1	0.82	1.04	0.88	0.54	inactive
3	LOC391745 (retired record)	1	0.25	0.13	0.27	0.34	inactive
4	ZMYND8 (zinc finger MYND-type containing 8)	1	1.52	1.73	1.46	1.36	inactive
5	PCDHB7 (protocadherin beta 7)	1	0.24	0.11	0.58	0.05	inactive
6	GJD2 (gap junction protein delta 2)	1	1.31	1.31	1.36	1.27	inactive
7	KRT86 (keratin 86)	1	0.5	0.28	0.53	0.68	inactive
8	POM121L12 (POM121 transmembrane nucleoporin like 12)	1	-0.83	-0.74	-1.06	-0.7	inactive
9	CDC14B (cell division cycle 14B)	1	-0.04	-0.17	0.06	0	inactive
10	LOC387915 (retired record)	1	1.59	1.31	1.78	1.67	inactive
11	HMGXB3 (HMG-box containing 3)	1	1.6	1.75	1.47	1.59	inactive
12	IL1RAPL1 (interleukin 1 receptor accessory protein like 1)	1	-0.03	0.22	-0.24	-0.05	inactive
13	KIFBP (kinesin family binding protein)	1	-0.85	-1.05	-0.71	-0.8	inactive
14	LOC147975 (retired record)	1	0.42	0.82	-0.07	0.52	inactive
15	ABCA13 (ATP binding cassette subfamily A member 13)	1	-0.09	-0.24	-0.2	0.15	inactive
16	CARD19 (caspase recruitment domain family member 19)	1	0.99	1.01	0.81	1.15	inactive
17	HHLA2 (HHLA2 member of B7 family)	1	-0.12	-0.37	-0.2	0.2	inactive
18	SLC12A5	1	-1.63	-1.71	-1.77	-1.42	inactive
19	NOXRED1 (NADP dependent oxidoreductase domain containing 1)	1	-0.08	0.19	-0.22	-0.2	inactive
20	LGALS9 (galectin 9)	1	-1.48	-1.73	-1.28	-1.44	inactive
21	GTF2H5 (general transcription factor IIH subunit 5)	1	-0.1	-0.63	0.17	0.16	inactive
22	ANK3 (ankyrin 3)	1	0.86	0.95	0.8	0.81	inactive
23	E2F2 (E2F transcription factor 2)	1	-0.88	-0.79	-0.89	-0.96	inactive
24	GPR108 (G protein-coupled receptor 108)	1	1.51	1.5	1.71	1.31	inactive
25	KLHDC1 (kelch domain containing 1)	1	-0.31	-0.45	-0.04	-0.44	inactive
26	TMEM131L (transmembrane 131 like)	1	0.05	0.55	-0.05	-0.33	inactive
27	IGFBP7-AS1 (IGFBP7 antisense RNA 1)	1	0.68	0.31	0.9	0.83	inactive
28	RNF112 (ring finger protein 112)	1	0.16	0.01	0.3	0.16	inactive
29	ARHGAP20 (Rho GTPase activating protein 20)	1	-0.03	0.45	-0.05	-0.47	inactive
30	USP17L6P	1	-0.24	-0.11	-0.3	-0.31	inactive
31	OCEL1 (occludin/ELL domain containing 1)	1	0.73	0.73	0.51	0.94	inactive
32	SLC2A10	1	0.23	0.35	-0.06	0.4	inactive
33	TADA2B (transcriptional adaptor 2B)	1	-1.14	-1.04	-1.37	-1.01	inactive
34	MTUS2 (microtubule associated scaffold protein 2)	1	-1.34	-1.35	-1.12	-1.56	inactive
35	XAGE5 (X antigen family member 5)	1	1.59	1.36	1.68	1.75	inactive
36	AZU1 (azurocidin 1)	1	-0.37	-0.49	-0.2	-0.42	inactive
37	GPR137 (G protein-coupled receptor 137)	1	0.53	1.38	0.47	-0.27	inactive
38	LOC339793 (retired record)	1	0.65	0.63	0.6	0.72	inactive
39	FBXO3 (F-box protein 3)	1	1.24	1.03	1.3	1.39	inactive
40	KIAA1549	1	0.78	1.01	0.95	0.36	inactive
41	BEX3 (brain expressed X-linked 3)	1	0.47	0.49	0.76	0.16	inactive
42	LOC389394 (retired record)	1	0	0	0.15	-0.14	inactive
43	APPBP2 (amyloid beta precursor protein binding protein 2)	1	0.12	0.08	0.1	0.18	inactive
44	TTN (titin)	1	-0.69	-0.72	-0.67	-0.67	inactive
45	GJA3 (gap junction protein alpha 3)	1	0.12	0.19	0.34	-0.16	inactive
46	IL4 (interleukin 4)	1	-1.25	-1.26	-1.1	-1.38	inactive
47	NOS2 (nitric oxide synthase 2)	1	-0.02	-0.21	-0.08	0.23	inactive
48	FRMD7 (FERM domain containing 7)	1	-0.56	-0.36	-0.47	-0.85	inactive
49	SUPT5H (SPT5 homolog, DSIF elongation factor subunit)	1	-2.12	-2.01	-2.07	-2.29	inactive
50	RPS25P6 (ribosomal protein S25 pseudogene 6)	1	-0.55	-0.78	-0.63	-0.25	inactive
51	ZNF165 (zinc finger protein 165)	1	-0.26	-0.4	-0.1	-0.28	inactive
52	PPARA (peroxisome proliferator activated receptor alpha)	1	0.25	0.23	0.13	0.38	inactive
53	PPARA (peroxisome proliferator activated receptor alpha)	2	-0.65	-0.78	-0.82	-0.35	inactive
54	CAPRIN2 (caprin family member 2)	1	-0.48	-0.38	-0.27	-0.79	inactive
55	ACE (angiotensin I converting enzyme)	1	-0.07	0.16	-0.3	-0.07	inactive
56	SMYD1 (SET and MYND domain containing 1)	1	1.31	1.25	1.34	1.36	inactive
57	LOC401358 (retired record)	1	0.25	0.16	0.43	0.15	inactive
58	PON1 (paraoxonase 1)	1	0.56	1.13	0.21	0.35	inactive
59	ITGAD (integrin subunit alpha D)	1	-0.68	-0.65	-0.65	-0.75	inactive
60	OR4N4 (olfactory receptor family 4 subfamily N member 4)	1	-1.6	-1.8	-1.49	-1.52	inactive
61	BAIAP2-DT (BAIAP2 divergent transcript)	1	-0.12	0.08	-0.09	-0.35	inactive
62	ZNF253 (zinc finger protein 253)	1	-0.19	-0.38	0.04	-0.25	inactive
63	MCU (mitochondrial calcium uniporter)	1	-0.37	-0.55	-0.26	-0.31	inactive
64	PIK3C3 (phosphatidylinositol 3-kinase catalytic subunit type 3)	1	-0.03	-0.47	0.08	0.31	inactive
65	SNX14 (sorting nexin 14)	1	0	-0.24	-0.18	0.42	inactive
66	GPD1L (glycerol-3-phosphate dehydrogenase 1 like)	1	0.67	0.48	0.5	1.04	inactive
67	CA13 (carbonic anhydrase 13)	1	-0.53		-0.48	-0.57	inactive
68	SYCP1 (synaptonemal complex protein 1)	1	1.47	1.62	1.36	1.43	inactive
69	SNHG12 (small nucleolar RNA host gene 12)	1	0.15	0.04	-0.2	0.6	inactive
70	ZNF571 (zinc finger protein 571)	1	-1.06	-0.62	-1.3	-1.25	inactive
71	PSMB8 (proteasome 20S subunit beta 8)	1	0.88	0.79	0.8	1.06	inactive
72	RETNLB (resistin like beta)	1	0.41	0.49	0.33	0.41	inactive
73	TBC1D14 (TBC1 domain family member 14)	1	0.3	0.29	0.31	0.3	inactive
